Pooled drug test results. Numbers come from NIAID ChemDB, via PubChem.

Common to all: growth or infection tests; organism: Mycobacterium avium; endpoint: MIC

Two numbers with a dash give a range or band. Lines come from different laboratories, so protocols vary. An empty or dashed field is not shown.

SMILES,strain,setting,value
CCCCOc1cccc(NC(=O)OCCN2CCCCC2)c1,MY330/88,-,125 µM
NC(=S)NNC(=O)c1ccc(F)cc1,ATCC 19421,-,>100 µg/mL
Fc1ccc(/C(Cn2ccnc2)=N\OCc2ccc(-c3ccccc3)cc2)cc1,CIP103317,-,16 µg/mL
O=c1oc2ccc([N+](=O)[O-])cc2c(=O)n1-c1ccccc1,CNCTC MY330/88,-,500 µM
Clc1ccc(/C(Cn2ccnc2)=N/OCc2ccc(-c3ccccc3)cc2)cc1,CIP103317,-,8 µg/mL
N/C(=N\NC(CC(=O)c1ccc(Cl)cc1)c1ccccn1)c1ccccn1,485,-,8 µg/mL
COc1ccc(-n2c(=O)oc3ccccc3c2=O)cc1,CNCTC MY330/88,-,31 µM
Cc1cccc(CNC(=S)c2ccccc2O)c1,MY330/88,-,0.5 µg/mL
CCCCCCOc1cccc(NC(=O)OCCN2CCCCC2)c1,MY330/88,-,32 µM
Fc1ccc(/C(Cn2ccnc2)=N\OC/C=C/c2ccccc2)cc1,CIP103317,-,4 µg/mL
O=[N+]([O-])c1ccccc1CSc1ncn[nH]1,MY330/88,-,1000 µM
CC[C@H]1OC(=O)[C@H](C)C(=O)[C@H](C)[C@@H](O[C@@H]2O[C@H](C)C[C@H](N(C)C)[C@H]2O)[C@](C)(OC)C[C@@H](C)C(=O)[C@H](C)[C@H]2N(CCCCn3cnc(-c4cccnc4)c3)C(=O)O[C@]12C,Isolate 1257,-,≥40 µg/mL
Fc1ccc(/C(Cn2ccnc2)=N\OCc2cccc3ccccc23)cc1,CIP103317,-,>16 µg/mL
CCCCCCCOc1ccccc1NC(=O)OCCN1CCCCC1,MY330/88,-,32 µM
N#CCSc1ccnc(C#N)c1,330/88,-,1000 µM
Cn1cn[nH]c1=S,MY330/88,-,>1000 µM
CC(C)[C@H](NC(=O)OCc1ccccc1)c1cnc(-c2ccc([N+](=O)[O-])cc2)[nH]1,MY330/88,14 d,>125 µM
N#Cc1cccc(CSc2ncn[nH]2)c1,MY330/88,-,1000 µM
O=S(=O)(NC[C@H]1O[C@H](O[C@H]2O[C@H](CNS(=O)(=O)c3ccccc3)[C@@H](O)[C@H](O)[C@H]2O)[C@H](O)[C@@H](O)[C@@H]1O)c1ccccc1,NJ3350,-,>128 µg/mL
Cc1ccc2c(=O)n(-c3cccc(F)c3)c(=O)oc2c1,CNCTC MY330/88,-,32 µM
CC(C)c1ccc(NC(=S)c2cccc(Br)c2)cc1,MY330/88,-,32 µM
CCCCCCCCCCCCN(CCCCCCCCCCCC)C[C@H]1O[C@H](O[C@H]2O[C@H](CN(CCCCCCCCCCCC)CCCCCCCCCCCC)[C@@H](O)[C@H](O)[C@H]2O)[C@H](O)[C@@H](O)[C@@H]1O,NJ3404,-,>128 µg/mL
COc1ccc2oc(=S)n(-c3ccc(C)cc3)c(=S)c2c1,MY330/88,21 d,32 µM
CCCCCCCCOc1cccc(NC(=O)OCCN(C)C)c1,MY330/88,-,16 µM
Cc1ccc(O)c(C(=O)NCc2ccc(Cl)cc2)c1,MY330/88,-,62.5 µg/mL
CCn1c(S)c(N=NC(N)=O)c2ccccc21,CNCTC MY66/72,-,63 µM
O=c1oc2ccc(Cl)cc2c(=O)n1-c1ccc(C(F)(F)F)cc1,CNCTC MY330/88,-,8 µM
C=CCS/C(N)=N/NC(=O)c1ccc(OC)cc1,ATCC 19421,-,>100 µg/mL
COc1cccc(C(=S)Nc2ccc(C(C)C)cc2)c1,MY330/88,-,32 µM
O=C(NCc1cccc(Br)c1)c1ccc(Br)cc1O,MY330/88,-,32 µg/mL
N#CCCSc1ccnc(C#N)c1,330/88,-,500 µM
Clc1ccc(/C(Cn2ccnc2)=N/OCc2cccc3ccccc23)cc1,CIP103317,-,>16 µg/mL
CCCCCN1C(=S)C(=O)c2ccccc21,CNCTC MY66/72,-,32 µM
O=c1oc2ccc(Br)cc2c(=S)n1-c1ccc(Br)cc1,MY330/88,21 d,32 µM
Cc1ccc(C(=O)Nn2c(C)nc3scc(-c4ccco4)c3c2=O)cc1,CNCTC MY330/88,-,40 µM
N#CCSc1cc(C#N)ccn1,330/88,-,125 µM
COc1ccc(CSc2ncn[nH]2)cc1,MY330/88,-,500 µM
NC(=S)NNC(=O)c1ccccc1,ATCC 19421,-,>100 µg/mL
CCCCCCOc1ccc(NC(=O)OCCN2CCCCCC2)cc1,MY330/88,-,16 µM
O=C(N[C@@H](Cc1ccccc1)c1cnc(-c2ccccc2)[nH]1)OCc1ccccc1,MY330/88,14 d,>250 µM
CCOC(=O)C(=O)N=Nc1c(S)n(CC)c2ccccc12,CNCTC D5/93,-,>1000 µM
CCOC(=O)c1c(-c2ccco2)csc1NC(C)=O,CNCTC MY330/88,-,>1000 µM
CS/C(N)=N/NC(=O)c1ccc(Cl)cc1Cl,ATCC 19421,-,>100 µg/mL
FC(F)(F)c1ccc(-n2c(=S)oc3ccc(Cl)cc3c2=S)cc1,MY330/88,21 d,62.5 µM
NNC(=O)c1ccncc1,1854-4,-,1.25 µg/mL
CN1C(=S)C(=O)c2ccccc21,CNCTC MY66/72,-,16 µM
COc1ccc(/C=N/n2c(C)nc3scc(-c4ccco4)c3c2=O)cc1,CNCTC MY330/88,-,14 µM
CCCCCCCCCCCC(N)=NC[C@H]1O[C@H](O[C@H]2O[C@H](CN=C(N)CCCCCCCCCCC)[C@@H](O)[C@H](O)[C@H]2O)[C@H](O)[C@@H](O)[C@@H]1O,NJ168,-,16 µg/mL
Clc1ccc(/C(Cn2ccnc2)=N/OCc2ccc(-c3ccccc3)cc2)c(Cl)c1,CIP103317,-,>16 µg/mL
N/C(=N\NC(CC(=O)c1ccc(Cl)cc1)c1ccncc1)c1ccccn1,485,-,8 µg/mL
CCCCCCCCOc1cccc(NC(=O)OCCN2CCCCC2)c1,MY330/88,-,16 µM
CC(C)N=C(N)/N=C(\N)NOCCCOc1cc(Cl)c(Cl)cc1Cl,Farino,-,<0.1 µg/mL
COc1cc(C(=O)NNC(N)=S)cc(OC)c1OC,ATCC 19421,-,>100 µg/mL
CCCOc1cccc(NC(=O)OCCN(C)C)c1,MY330/88,-,500 µM
CC(C)N=c1cc2n(-c3ccc(Cl)cc3)c3ccccc3nc-2cc1Nc1ccc(Cl)cc1,11882,-,5 µg/mL
CCCCCCOc1ccc(NC(=O)OC(C)CN2CCCCC2)cc1,MY330/88,-,32 µM
Cn1cnnc1SCc1cccc(Br)c1,MY330/88,-,1000 µM
CCCCCCOc1ccc(NC(=O)OCCN2CCCCC2)cc1,MY330/88,-,32 µM
C=CCS/C(N)=N/NC(=O)c1ccc([N+](=O)[O-])cc1,ATCC 19421,-,>100 µg/mL
N/C(=N\NC(CC(=O)c1ccccc1)c1cccnc1)c1ccccn1,485,-,8 µg/mL
Cc1nc2scc(-c3ccco3)c2c(=O)n1/N=C/C1CC1,CNCTC MY330/88,-,61 µM
C=CCS/C(N)=N/NC(=O)c1cc(OC)c(OC)c(OC)c1,ATCC 19421,-,>100 µg/mL
CCCCCCCCS(=O)(=O)NC[C@H]1O[C@H](O[C@H]2O[C@H](CNS(=O)(=O)CCCCCCCC)[C@@H](O)[C@H](O)[C@H]2O)[C@H](O)[C@@H](O)[C@@H]1O,NJ168,-,32–64 µg/mL
Cc1nc2scc(-c3ccco3)c2c(=O)n1/N=C/c1ccco1,CNCTC MY330/88,-,54 µM
O=c1oc2ccc(F)cc2c(=O)n1-c1cccc(F)c1,CNCTC MY330/88,-,62 µM
Cc1nc2scc(-c3ccco3)c2c(=O)n1NC(=O)c1ccco1,CNCTC MY330/88,-,101 µM
NC(=S)CSc1cc(C(N)=S)ccn1,330/88,-,62 µM
CC(C)c1ccc(NC(=S)c2cccc([N+](=O)[O-])c2)cc1,MY330/88,-,62.5 µM
Cc1ccc(C(=O)NNC(N)=S)cc1,ATCC 19421,-,>100 µg/mL
CCCCc1ccc(NC(=S)c2cccc(Br)c2)cc1,MY330/88,-,32 µM
Cc1c(F)c(N2CCNC(C)C2)cc2c1c(=O)c(C(=O)O)cn2C1CC1,25-3,-,0.25 µg/mL
Cc1ccc(O)c(C(=S)NCc2ccccc2)c1,MY330/88,-,1 µg/mL
Cc1nc2scc(-c3ccco3)c2c(=O)n1/N=C/C1CCCCC1,CNCTC MY330/88,-,57 µM
NC(=S)c1ccnc(SCC(O)CO)c1,330/88,-,250 µM
N/C(=N\NC(CC(=O)c1ccc(Cl)cc1)c1cccnc1)c1ccccn1,485,-,80 µg/mL
Cc1ccc(-n2c(=O)oc3cc(C)ccc3c2=O)cc1,CNCTC MY330/88,-,31 µM
Cc1cccc(C(=O)CC(N/N=C(\N)c2ccccn2)c2cccnc2)c1,485,-,16 µg/mL
Cc1ccc(-n2c(=S)oc3ccc(F)cc3c2=S)cc1,MY330/88,14 d,16 µM
Cc1nc2scc(-c3ccco3)c2c(=O)n1/N=C/c1ccc(Cl)cc1Cl,CNCTC MY330/88,-,4 µM
C[C@H](NC(=O)OCc1ccccc1)c1cnc(-c2ccccc2)[nH]1,MY330/88,21 d,250 µM
Clc1cccc(CSc2ncn[nH]2)c1,MY330/88,-,250 µM
N/C(=N\NC(=O)c1ccc(F)cc1)SCc1cccc(Cl)c1,ATCC 19421,-,>100 µg/mL
CCCCCCCCNC[C@H]1O[C@H](O[C@H]2O[C@H](CNCCCCCCCC)[C@@H](O)[C@H](O)[C@H]2O)[C@H](O)[C@@H](O)[C@@H]1O,NJ3009,-,2 µg/mL
C[C@H](NC(=O)OCc1ccccc1)c1cnc(-c2ccc([N+](=O)[O-])cc2)[nH]1,MY330/88,21 d,>125 µM
CO[C@H]1/C=C/O[C@@]2(C)Oc3c(C)c(O)c4c(O)c(cc(O)c4c3C2=O)NC(=O)/C(C)=C\C=C\[C@H](C)[C@H](O)[C@@H](C)[C@@H](O)[C@@H](C)[C@H](OC(C)=O)[C@@H]1C,Rhode Island,-,1 µg/mL
Cc1cccc(C(N)=Nc2nc(-c3ccccn3)cc3ccccc23)c1,101,-,1 µg/mL
CCCCCCNC[C@H]1O[C@H](O[C@H]2O[C@H](CNCCCCCC)[C@@H](O)[C@H](O)[C@H]2O)[C@H](O)[C@@H](O)[C@@H]1O,NJ211,-,128 µg/mL
O=c1oc2ccc(F)cc2c(=O)n1-c1ccc(Cl)c(Cl)c1,CNCTC MY330/88,-,8 µM
COc1ccc2oc(=O)n(-c3cccc(F)c3)c(=S)c2c1,MY330/88,21 d,125 µM

Again, the opening 5 rows:

SMILES | strain | setting | value
CCCCOc1cccc(NC(=O)OCCN2CCCCC2)c1 | MY330/88 | - | 125 µM
NC(=S)NNC(=O)c1ccc(F)cc1 | ATCC 19421 | - | >100 µg/mL
Fc1ccc(/C(Cn2ccnc2)=N\OCc2ccc(-c3ccccc3)cc2)cc1 | CIP103317 | - | 16 µg/mL
O=c1oc2ccc([N+](=O)[O-])cc2c(=O)n1-c1ccccc1 | CNCTC MY330/88 | - | 500 µM
Clc1ccc(/C(Cn2ccnc2)=N/OCc2ccc(-c3ccccc3)cc2)cc1 | CIP103317 | - | 8 µg/mL